The results in this text go back to ChEMBL document CHEMBL1128289, “Reductive chemistry of the novel hypoxia-selective cytotoxin 5-[N,N-bis(2-chloroethyl)amino]-2,4-dinitrobenzamide” (J Med Chem, 1995).

For this assay, the system named is UV4. Nature of the assay: Cytotoxicity in a growth inhibition assay against aerobic cultures of UV4 cells was determined.
The compound `NC(=O)c1cc(N(CCCl)CCCl)c(N)cc1[N+](=O)[O-]` registered an IC50 of 12000 nM.
The value for `NC(=O)c1cc(N(CCCl)CCCl)c(N)cc1N` was 29 nM; that for `NC(=O)c1cc(N(CCCl)CCCl)c([N+](=O)[O-])cc1N` was 220 nM.
